Biological target: human Kv1.3 voltage-gated potassium channel (human) (UniProt P22001)
Assay: cell-based or functional assay

Row | Substance | Potency Relative to ShK (WB, IL2) [fold] | WB (IFNg) IC50 [nM] | WB (IL-2) IC50 [nM]
1 | 20 kDa-PEG-[Lys16]ShK-Ala (peptide) | 11.2 |  | 
2 | Bivalent Fc-ShK(1-35 Q16K) homodimer (IgG2) (Fc fusion) | 27.6 | 3.14 | 1.85

Source: patent US20150044236A1
